Test results published in patent US20030044399A1, “Method of treatment” (SmithKline Beecham Corporation, priority 1998, published 2003).

The chains behind the UniProt entries cited, without tags or fusion partners. Residues count along the entry.
UniProt P25779, 123-337 limits assumed: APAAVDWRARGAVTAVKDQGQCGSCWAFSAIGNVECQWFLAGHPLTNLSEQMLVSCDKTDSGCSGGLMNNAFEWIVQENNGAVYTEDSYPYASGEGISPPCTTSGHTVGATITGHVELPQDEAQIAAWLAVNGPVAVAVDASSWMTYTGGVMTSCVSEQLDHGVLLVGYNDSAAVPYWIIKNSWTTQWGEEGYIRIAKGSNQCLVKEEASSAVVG
UniProt Q95PM0, 1-450: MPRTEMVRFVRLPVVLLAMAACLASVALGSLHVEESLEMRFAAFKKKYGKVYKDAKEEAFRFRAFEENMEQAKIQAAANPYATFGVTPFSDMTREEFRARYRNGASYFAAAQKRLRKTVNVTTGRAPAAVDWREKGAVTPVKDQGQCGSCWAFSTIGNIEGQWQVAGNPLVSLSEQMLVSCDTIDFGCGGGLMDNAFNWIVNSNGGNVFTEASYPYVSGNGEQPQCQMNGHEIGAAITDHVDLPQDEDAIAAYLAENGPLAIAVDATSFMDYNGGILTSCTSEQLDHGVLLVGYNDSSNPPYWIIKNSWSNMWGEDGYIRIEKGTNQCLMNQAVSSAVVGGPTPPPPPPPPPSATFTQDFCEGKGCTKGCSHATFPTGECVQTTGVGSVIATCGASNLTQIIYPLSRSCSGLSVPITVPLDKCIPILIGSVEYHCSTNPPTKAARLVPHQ

Legend:
Cruzain = Cruzain (Trypanosoma cruzi, UniProt P25779); assay: Cysteine protease inhibition, progress curve method, cruzain; format: biochemical; conditions: read-out: Cruzain Ki nM; 4 uM Ac-Lys-Glu-Lys-Leu-Arg-AMC, 100 mM Na acetate pH 5.5, 5 mM cysteine
Method: (§1) Standard assay conditions for the determination of kinetic constants used 10 uM fluorogenic peptide substrate, Cbz-Phe-Arg-AMC for the cysteine proteases from Leishmania spp and Schistosoma Mansoni, Cbz-Leu-Arg-AMC for the cysteine proteases from Plasmodium falciparum and Trypanosoma brucei rhodesiensi, and Ac-Lys-Glu-Lys-Leu-Arg-AMC (4 uM final substrate concentration) for the cysteine protease from Trypoanosoma cruzi, and were determined in 100 mM Na acetate at pH 5.5 containing 5 mM cysteine. Stock substrate solutions were prepared at concentrations of […] in DMSO with 10 uM (4 uM for Ac-Lys-Glu-Lys-Leu-Arg-AMC) final substrate concentration in the assays. The final DMSO concentration was 2% and the final volume was 100 uL. All assays were conducted at ambient temperature. […]
(§2) Potential inhibitors were evaluated using the progress curve method. […] For those compounds whose progress curves were linear, apparent inhibition constants (Ki,app) were calculated according to equation 1 (Brandt et al., Biochemitsry, 1989, 28, 140): […]
(§3) Where [AMC] is the concentration of product formed over time t, v0 is the initial reaction velocity and vss is the final steady state rate. Values for kobs were then analyzed as a linear function of inhibitor concentration to generate an apparent second order rate constant (kobs/inhibitor concentration or kobs/[I]) describing the time-dependent inhibition. […]

Rhodazain = Rhodazain (Trypanosoma brucei rhodesiense, UniProt Q95PM0); assay: Cysteine protease inhibition, progress curve method, rhodazain; format: biochemical, Trypanosoma brucei rhodesiensi; conditions: read-out: Rhodazain Ki; 10 uM Cbz-Leu-Arg-AMC, 100 mM Na acetate pH 5.5, 5 mM cysteine
Method: as §1, §2, §3

| Structure (SMILES) | Ki (Cruzain) [nM] | Ki (Rhodazain) [nM] |
| --- | --- | --- |
| CC(C)C[C@H](NC(=O)c1cc2sccc2s1)C(=O)NC1CCCN(S(=O)(=O)c2ccccn2)CC1=O (stereo partly drawn) | 9 | 5.9 |
| O=C(N[C@@H](Cc1ccccc1)C(=O)NC1CCCN(S(=O)(=O)c2ccccn2)CC1=O)c1cccc2ccccc12 (stereo partly drawn) | – | 5.7 |
